HIV-1 NL4-3 point mutations in RT: replication capacity

Protein: RT of HIV-1 NL4-3, numbered from its first residue.
Effects on overlapping genes or RNA elements are not listed.

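Random point mutant libraries of HIV-1 NL4-3, one for each of seven fragments, were passaged in CEM T lymphocytes. Sequencing gave the RC index: frequency after two rounds over frequency in the input plasmid.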

RC index: lower means poorer replication; rough cut-offs are 0.1 (lethal) and 0.2 (tolerated). A change reads original residue, position, new residue. Since each clone held several changes (about five per kb), neutral changes can read low.

{"mutation": "W398C", "base": "G3743T", "RC index": 0.328}
{"mutation": "E399G", "base": "A3745G", "RC index": 0.0384}
{"mutation": "A400T", "base": "G3747A", "RC index": 0.0969}
{"mutation": "A400S", "base": "G3747T", "RC index": 0.0561}
{"mutation": "W401R", "base": "T3750C", "RC index": 0.0705}
{"mutation": "W401S", "base": "G3751C", "RC index": 0.0412}
{"mutation": "W401C", "base": "G3752T", "RC index": 0.0632}
{"mutation": "W402C", "base": "G3755C", "RC index": 0.215}
{"mutation": "T403S", "base": "A3756T", "RC index": 0.0498}
{"mutation": "T403I", "base": "C3757T", "RC index": 0.163}
{"mutation": "E404K", "base": "G3759A", "RC index": 0.242}
{"mutation": "E404V", "base": "A3760T", "RC index": 0.0200}
{"mutation": "Y405H", "base": "T3762C", "RC index": 0.121}
{"mutation": "W406R", "base": "T3765C", "RC index": 0.0402}
{"mutation": "W406C", "base": "G3767C", "RC index": 0.279}
{"mutation": "W406C", "base": "G3767T", "RC index": 0.111}
{"mutation": "Q407K", "base": "C3768A", "RC index": 0.0632}
{"mutation": "Q407E", "base": "C3768G", "RC index": 0.0501}
{"mutation": "Q407L", "base": "A3769T", "RC index": 0.0740}
{"mutation": "Q407H", "base": "A3770C", "RC index": 0.0421}
{"mutation": "A408G", "base": "C3772G", "RC index": 0.111}
{"mutation": "T409S", "base": "A3774T", "RC index": 0.0288}
{"mutation": "T409S", "base": "C3775G", "RC index": 0.140}
{"mutation": "W410G", "base": "T3777G", "RC index": 0.204}
{"mutation": "I411S", "base": "T3781G", "RC index": 0.105}
{"mutation": "E413G", "base": "A3787G", "RC index": 0.0438}
{"mutation": "E413V", "base": "A3787T", "RC index": 0.0527}
{"mutation": "E413D", "base": "G3788C", "RC index": 0.0279}
{"mutation": "W414R", "base": "T3789A", "RC index": 0.0551}
{"mutation": "W414C", "base": "G3791T", "RC index": 0.0216}
{"mutation": "E415V", "base": "A3793T", "RC index": 0.0338}
{"mutation": "F416Y", "base": "T3796A", "RC index": 0.0504}
{"mutation": "V417I", "base": "G3798A", "RC index": 0.184}
{"mutation": "V417L", "base": "G3798C", "RC index": 0.107}
{"mutation": "V417D", "base": "T3799A", "RC index": 0.0368}
{"mutation": "V417A", "base": "T3799C", "RC index": 0.140}
{"mutation": "T419A", "base": "A3804G", "RC index": 0.0863}
{"mutation": "P420L", "base": "C3808T", "RC index": 0.0594}
{"mutation": "P421L", "base": "C3811T", "RC index": 0.174}
{"mutation": "L422S", "base": "T3814C", "RC index": 0.0521}
{"mutation": "V423A", "base": "T3817C", "RC index": 0.136}
{"mutation": "K424E", "base": "A3819G", "RC index": 0.0189}
{"mutation": "K424R", "base": "A3820G", "RC index": 0.108}

An index over 1, which the authors read as above wild type, was rare (1.9% of all changes in the genome). Base changes are numbered along pNL4-3.

The measurements come from Al-Mawsawi et al. 2014 (doi:10.1186/s12977-014-0124-6).